Pooled drug test results. Numbers come from NIAID ChemDB, via PubChem.

Shared fields: tests in culture; organism: HIV-1; cell line: CEM; measure: EC50

Neighbouring rows are from separate reports. ECn is the concentration giving n% inhibition of infection, replication or growth.

Cc1cn([C@@H]2O[C@H](CO[Si](C)(C)C(C)(C)C)C3(OS(=O)(=O)C=C3N)[C@H]2O[Si](C)(C)C(C)(C)C)c(=O)n(CC(=O)N[C@@H](CC(=O)O)C(=O)O)c1=O ; strain: IIIB ; read by: syncytia ; value: 6.7 µM
CCN1C(=O)N(Cc2ccccc2)S(=O)(=O)c2cscc21 ; strain: IIIB ; changes: RT-Y181C ; read by: syncytia ; value: >310 µM
Cc1cn([C@@H]2O[C@H](CO[Si](C)(C)C(C)(C)C)C3(OS(=O)(=O)C=C3N)[C@H]2O[Si](C)(C)C(C)(C)C)c(=O)n(CC(=O)N[C@@H](C)C(=O)OCc2ccccc2)c1=O ; strain: IIIB ; read by: syncytia ; value: 0.67 µM
CC(C)=CCN1Cc2cc(Cl)cc3[nH]c(=S)n(c23)C[C@@H]1C ; strain: IIIB ; changes: RT-E138K ; read by: syncytia ; value: 0.16 µM
OB(O)c1ccc(Br)cc1 ; strain: IIIB ; read by: syncytia ; value: >50 µM
NNC(=O)c1cc(Br)ccc1NC(=O)C12CC3CC(CC(C3)C1)C2 ; read by: cytopathic effect / XTT ; value: >15.8 µM
CC(C)Nc1cccnc1N1CCN(C(=O)c2cc3cc(NS(C)(=O)=O)ccc3[nH]2)CC1 ; strain: IIIB ; changes: RT-K103N ; read by: syncytia ; value: 0.27 µg/mL
CCN1C(=O)N(Cc2cccc(Cl)c2)S(=O)(=O)c2cscc21 ; changes: RT-E138K ; read by: syncytia ; value: 9.2 µM
Cc1cn([C@@H]2O[C@H](CO[Si](C)(C)C(C)(C)C)C3(OS(=O)(=O)C=C3N)[C@H]2O[Si](C)(C)C(C)(C)C)c(=O)n(C)c1=O ; strain: IIIB ; changes: RT-V106A ; read by: syncytia ; value: 2.2 µg/mL
O=c1[nH]cnc2c1ncn2[C@H]1CC[C@@H](CO)O1 ; strain: IIIB ; changes: RT-E138K ; read by: syncytia ; value: 5.3 µM
CC(C)=CCN1Cc2cc(Cl)cc3[nH]c(=S)n(c23)C[C@@H]1C ; strain: IIIB ; read by: cytopathic effect / XTT ; value: 0.07 µM
O=c1oc(C23CC4CC(CC(C4)C2)C3)nc2ccc(Cl)cc12 ; read by: cytopathic effect / XTT ; value: 69.2 µM
CC(C)(C)[Si](C)(C)OC[C@H]1O[C@@H](n2cnc3c(N)ncnc32)[C@H](O[Si](C)(C)C(C)(C)C)C12OS(=O)(=O)C=C2N ; strain: IIIB ; read by: syncytia ; value: 0.08 µM
Cc1ccnc2c1NC(=O)c1cccnc1N2C1CC1 ; strain: IIIB ; changes: RT-Y181C ; read by: syncytia ; value: 864 µM
OB(O)c1ccccc1/C=N/NC(=S)Nc1ccccc1 ; strain: IIIB ; read by: syncytia ; value: >50 µM
N#CCN1C(=O)N(Cc2ccccc2)S(=O)(=O)c2cscc21 ; strain: IIIB ; read by: syncytia ; value: 1.2 µM
CCOCn1c(Cc2cc(C)cc(C)c2)c(CC)c(=O)[nH]c1=O ; strain: IIIB ; read by: syncytia ; value: 0.003 µg/mL
COc1ccc2c(c1)N(C(=O)OC(C)C)[C@@H](CSC)C(=S)N2 ; strain: IIIB ; value: 0.003 µM
C#CCN1C(=O)N(Cc2ccccc2)S(=O)(=O)c2cscc21 ; strain: IIIB ; changes: RT-K103N ; read by: syncytia ; value: >60 µM
CCNc1cccnc1N1CCN(C(=O)c2cc3cc(OC)ccc3[nH]2)CC1 ; strain: IIIB NEV(RT-V106A) ; changes: RT-V106A ; read by: syncytia ; value: 0.4 µg/mL
O=c1[nH]cnc2c1ncn2[C@H]1CC[C@@H](CO)O1 ; strain: IIIB-TIBO(0.5)(RT-L100I) ; changes: RT-L100I ; read by: syncytia ; value: 8 µM
O=C1N(Cc2ccccc2)c2cscc2S(=O)(=O)N1Cc1ccccc1 ; strain: IIIB ; changes: RT-Y181C ; read by: syncytia ; value: ≥10 µM
Cc1cn([C@@H]2O[C@H](CO[Si](C)(C)C(C)(C)C)C3(OS(=O)(=O)C=C3N)[C@H]2O[Si](C)(C)C(C)(C)C)c(=O)n(C)c1=O ; strain: IIIB ; read by: cytopathic effect / XTT ; value: 0.03 µM
Cc1cn([C@@H]2O[C@H](CO[Si](C)(C)C(C)(C)C)C3(OS(=O)(=O)C=C3N)[C@H]2O[Si](C)(C)C(C)(C)C)c(=O)n(C)c1=O ; strain: IIIB-Nevirapine(0.1)(RT-Y181C) ; changes: RT-Y181C ; read by: syncytia ; value: 0.78 µg/mL
CN1C(=O)N(Cc2ccccc2)S(=O)(=O)c2cscc21 ; changes: RT-V106A ; read by: syncytia ; value: >324 µM
O=c1[nH]c2ccc(Cl)cc2n1Cc1c(F)cccc1F ; changes: RT-Y181C ; read by: cytopathic effect ; value: >20 µM
Cc1cn([C@H]2C[C@H](F)[C@@H](CO)O2)c(=S)[nH]c1=O ; read by: syncytia ; value: 0.5 µM
Nc1ncnc2c1ncn2CCOCP(=O)(O)O ; strain: IIIB ; changes: RT-E138K ; read by: syncytia ; value: 15 µM
COc1cc(NC(=O)C23CC4CC(CC(C4)C2)C3)c(C(=O)NN)cc1OC ; read by: cytopathic effect / XTT ; value: >40.5 µM
O=C(CC[C@H]1C(=O)OCN1C(=O)OCc1ccccc1)Nc1ccc(B(O)O)cc1 ; strain: IIIB ; read by: syncytia ; value: >50 µM
Cc1ccnc2c1NC(=O)c1cccnc1N2C1CC1 ; strain: IIIB NEV(RT-V106A) ; changes: RT-V106A ; read by: syncytia ; value: 2.3 µg/mL
O=C1N(Cc2ccccc2)c2cscc2S(=O)(=O)N1Cc1ccccc1 ; changes: RT-E138K ; read by: syncytia ; value: ≥10.4 µM
CC[C@H]1C(=O)Nc2ccc(F)cc2N1C(=O)OC(C)C ; strain: TSAO-m3T-resistant ; changes: RT-E138K ; read by: cytopathic effect ; value: 0.0057 µM
Nc1ccn([C@H]2CC[C@@H](CO)O2)c(=O)n1 ; strain: IIIB-Nevirapine(1.0)(RT-Y181C) ; changes: RT-Y181C ; read by: syncytia ; value: 0.078 µM
COc1ccc(CN2C(=O)Nc3cscc3S2(=O)=O)c(OC)c1 ; strain: IIIB ; read by: syncytia ; value: >282.2 µM
CCc1cc(NCc2nc3c(Cl)ccc(Cl)c3o2)c(=O)[nH]c1C ; strain: IIIB ; value: 0.0143 µM
Cc1cn([C@@H]2O[C@H](CO[Si](C)(C)C(C)(C)C)C3(OS(=O)(=O)C=C3N)[C@H]2O[Si](C)(C)C(C)(C)C)c(=O)n(C)c1=O ; strain: IIIB ; read by: cytopathic effect ; value: 0.04 µM
OCCS ; strain: IIIB ; read by: cytopathic effect / MTT ; value: >100 µM
CC(C)Nc1cccnc1N1CCN(C(=O)c2cc3cc(NS(C)(=O)=O)ccc3[nH]2)CC1 ; strain: IIIB WT ; read by: cytopathic effect ; value: 0.014 µM
Cc1cn([C@H]2C[C@H](N=[N+]=[N-])[C@@H](CO)O2)c(=O)[nH]c1=O ; strain: IIIB-TIBO(0.5)(RT-L100I) ; changes: RT-L100I ; read by: syncytia ; value: 0.004 µM
OB(O)c1ccc(/C=N\NC(=S)Nc2ccccc2)cc1 ; strain: IIIB ; read by: syncytia ; value: >50 µM
CN1C(=O)N(Cc2ccccc2)S(=O)(=O)c2cscc21 ; strain: IIIB ; changes: RT-E138K ; read by: syncytia ; value: >324 µM
Cc1cn([C@H]2C[C@H](N=[N+]=[N-])[C@@H](CO)O2)c(=O)[nH]c1=O ; strain: IIIB ; value: 0.008 µM
Fc1cccc(F)c1[C@H]1SCc2nc3ccccc3n21 ; strain: IIIB ; changes: RT-D138K ; read by: cytopathic effect / XTT ; value: 0.87 µM
Cc1ccnc2c1NC(=O)c1cccnc1N2C1CC1 ; changes: RT-Y181C ; read by: syncytia ; value: 25.5 µM
CCOCn1c(Cc2ccccc2)c(CC)c(=O)[nH]c1=O ; strain: IIIB ; read by: syncytia ; value: 0.004 µg/mL
Cc1occc1C(=S)Nc1ccc(Cl)c(C(=O)OC2CCCC2)c1 ; strain: IIIB ; changes: RT-E138K ; read by: syncytia ; value: 0.035 µg/mL
Cc1cn([C@H]2C[C@H](F)[C@@H](CP(=O)(O)O)O2)c(=S)[nH]c1=O ; read by: syncytia ; value: 0.5 µM
CCOCn1c(Cc2ccccc2)c(C(C)C)c(=O)[nH]c1=O ; strain: IIIB ; value: 0.00248 µM
Cc1occc1C(=S)Nc1ccc(Cl)c(/C=N/OC(C)(C)C)c1 ; strain: IIIB ; changes: RT-L100I ; read by: syncytia ; value: 0.085 µg/mL
CCOCn1c(Sc2ccccc2)c(CC)c(=O)[nH]c1=O ; strain: IIIB BHAP(RT-L100I) ; changes: RT-L100I ; read by: syncytia ; value: 0.03 µg/mL
NCCS ; strain: IIIB ; read by: cytopathic effect / MTT ; value: <100 µM

A second listing of 4 rows from above:

{"structure": "O=c1[nH]cnc2c1ncn2[C@H]1CC[C@@H](CO)O1", "strain": "IIIB-TIBO(0.5)(RT-L100I)", "changes": "RT-L100I", "read by": "syncytia", "value": "8 µM"}
{"structure": "CC(C)Nc1cccnc1N1CCN(C(=O)c2cc3cc(NS(C)(=O)=O)ccc3[nH]2)CC1", "strain": "IIIB WT", "read by": "cytopathic effect", "value": "0.014 µM"}
{"structure": "CCN1C(=O)N(Cc2cccc(Cl)c2)S(=O)(=O)c2cscc21", "changes": "RT-E138K", "read by": "syncytia", "value": "9.2 µM"}
{"structure": "Cc1ccnc2c1NC(=O)c1cccnc1N2C1CC1", "changes": "RT-Y181C", "read by": "syncytia", "value": "25.5 µM"}